For this data set, the system named is NTF2L domain of G3BP1. The data set is described as follows: Single-particle cryo-EM structure of the CHIKV-43–NTF2L complex. Set-up: species or system human.

Molecules are shown by their SMILES.

With `CC[C@H](C)[C@H](NC(=O)[C@H](CCC(=O)O)NC(=O)CNC(=O)[C@H](CC(=O)O)NC(=O)[C@H](CC(N)=O)NC(=O)[C@H](Cc1ccccc1)NC(=O)[C@H](CC(=O)O)NC(=O)CNC(=O)[C@H](Cc1ccccc1)NC(=O)[C@@H](NC(=O)[C@@H](NC(=O)[C@@H]1CCCN1C(=O)[C@H](Cc1ccccc1)NC(=O)[C@@H](NC(=O)[C@H](CCC(=O)O)NC(=O)[C@H](CO)NC(=O)CNC(=O)[C@H](CC(C)C)NC(=O)[C@@H]1CCCN1C(=O)CN)[C@@H](C)O)[C@@H](C)CC)[C@@H](C)O)C(=O)N[C@@H](CCC(=O)O)C(=O)N[C@@H](CO)C(=O)N[C@@H](CC(C)C)C(=O)N[C@@H](CO)C(=O)N[C@@H](CO)C(=O)N[C@@H](CCC(=O)O)C(=O)N[C@@H](CC(C)C)C(=O)N[C@@H](CC(C)C)C(=O)N[C@H](C(=O)N[C@@H](Cc1ccccc1)C(=O)NCC(=O)N[C@@H](CC(=O)O)C(=O)N[C@@H](Cc1ccccc1)C(=O)N[C@@H](CC(C)C)C(=O)N1CCC[C@H]1C(=O)NCC(=O)N[C@@H](CCC(=O)O)C(=O)N[C@H](C(=O)N[C@@H](CC(=O)O)C(=O)N[C@@H](CC(=O)O)C(=O)N[C@@H](CC(C)C)C(=O)N[C@H](C(=O)N[C@@H](CC(=O)O)C(=O)N[C@@H](CO)C(=O)N[C@@H](CC(=O)O)C(=O)N[C@@H](Cc1c[nH]c2ccccc12)C(=O)N[C@@H](CO)C(=O)N[C@H](C(=O)N[C@@H](Cc1c[nH]cn1)C(=O)N[C@@H](Cc1c[nH]cn1)C(=O)N[C@@H](Cc1c[nH]cn1)C(=O)N[C@@H](Cc1c[nH]cn1)C(=O)N[C@@H](Cc1c[nH]cn1)C(=O)N[C@@H](Cc1c[nH]cn1)C(=O)O)[C@@H](C)O)[C@@H](C)O)C(C)C)[C@@H](C)O` [CHIKV-43], the “proportion of total particles” value is listed as 49.1% (Conformation I of the CHIKV-43–NTF2L complex), 32.9% (Conformation II of the CHIKV-43–NTF2L complex) and 18.0% (Conformation III of the CHIKV-43–NTF2L complex). In addition, for the setting “cryo-EM, approximately 2.7 Å resolution”, the “composition of the complex in the final cryo-EM model” value was “eight CHIKV-43 peptides and eight NTF2L homodimers”.

Source of the values: paper PMC12077208 (mBio, 2025).
